Measured values from several laboratories, pooled; numbers as filed in NIAID ChemDB.

All rows: tests in culture; organism: HIV-1; cells: CEM + CEM-SS; read-out: EC50

Conditions beyond the fields shown may differ between rows.

SMILES,strain,changes,read by,value
CC(=O)SCCOP(=O)(OCCSC(C)=O)OC[C@@H]1CC[C@H](n2cnc3c(=O)[nH]cnc32)O1,LAI,-,RT activity,1.2 µM
CCCCCC=C(c1cc(Cl)c(OC)c(C(=O)O)c1)c1cc(Cl)c(OC)c(C(=O)O)c1,RF,-,cytopathic effect / XTT,>84 µM
Cc1cn([C@H]2CC[C@@H](CO)O2)c(=O)[nH]c1=O,LAI,-,RT activity,4 µM
CCc1cc(COCc2ccccc2Br)c(=O)[nH]c1C,LAI,-,RT activity,2.1 µM
CCc1nc2sccn2c1C(=O)c1ccc(O)cc1,LAI,-,RT activity,>64 µM
CCOCn1c([Se]c2ccccc2)c(C(C)C)c(=O)[nH]c1=O,RF,-,cytopathic effect / XTT,0.013 µM
CC(=O)c1ccc(C)cc1NC(C(N)=O)c1c(Cl)cccc1Cl,Calanolide A-resistant (RT T139I),RT-T139I,XTT,0.07 µM
CC(C)=CCN1Cc2cc(Cl)cc3[nH]c(=S)n(c23)C[C@@H]1C,LAI,-,RT activity,0.12 µM
CC(C)=CCOc1cc(CCc2cccc(O)c2)cc(O)c1CC=C(C)C,RF,-,cytopathic effect / XTT,2 µg/mL
C/C=C/CSc1cc(NC(=S)c2ccsc2C)ccc1Cl,4XAZT+Y181C,-,cytopathic effect / XTT,0.9 µM
CCCCCCCCCCCCSCC(COP(=O)([O-])OCC[N+](C)(C)C)OCCCCCCCCC(=O)OCC(=O)OC[C@H]1O[C@@H](n2cc(C)c(=O)[nH]c2=O)C[C@@H]1N=[N+]=[N-],Clinical isolate G910-6 post-AZT,RT mutant at codon 215,plaque count,0.03 µM
Clc1ccc(Cn2c(Br)nc3cc(Cl)c(Cl)cc32)cc1Cl,IIIB,-,RT activity,>100 µM
CC(=O)SCCOP(=O)(OCCSC(C)=O)OC[C@@H]1CC[C@H](n2cc(C)c(=O)[nH]c2=O)O1,LAI,-,RT activity,1.7 µM
CC(=O)Nc1ccccc1S(=O)(=O)c1ccccc1,RF,-,cytopathic effect / XTT,234 µM
CCCCCCCCCCCCSCC(COP(=O)([O-])OCC[N+](C)(C)C)OCCCCCCCCO,Clinical isolate H112-2 pre-AZT,-,plaque count,0.21 µM
O=[N+]([O-])c1ccccc1S(=O)(=O)Oc1ccccc1,RF,-,cytopathic effect / XTT,6.3 µM
CCCc1cc(=O)oc2c3c(c4c(c12)OC(C)(C)C=C4)O[C@H](C)[C@@H](C)[C@@H]3O,RF,-,XTT,0.1 µM
CCc1nc2ncccn2c1C(=O)c1ccccc1,LAI,-,RT activity,62 µM
CCCCCC=C(c1cc(Br)c([O-])c(C(=O)O)c1)c1cc(Br)c([O-])c(C(=O)O)c1.[NH4+].[NH4+],RF,-,cytopathic effect / XTT,>150 µM
CCc1nc2ccccn2c1C(=O)c1cccc(O)c1,LAI,-,RT activity,4 µM
Nc1nc(Cl)nc2c1ncn2[C@@H]1CC[C@H](CO)O1,-,-,RT activity,>10 µM
CC(C)(C)OC(=O)N[C@@H](Cc1ccccc1)[C@H](O)CNC[C@@H](O)[C@H](Cc1ccccc1)NC(=O)C1[C@H](O)CCC1(C)C,RF,-,cytopathic effect / XTT,0.02 µM
CNc1ccc(Cl)cc1S(=O)(=O)c1ccccc1[N+](=O)[O-],NL4-3,-,XTT,0.2 µM
O=[N+]([O-])c1ccccc1S(=O)(=O)c1ccccc1,LAV,-,-,1.36 µM
Cc1cn([C@H]2C[C@H](N=[N+]=[N-])[C@@H](COP(=O)(O)OCc3ccccc3)O2)c(=O)[nH]c1=O,-,-,-,<0.005 µM
CC[C@H](NC(=O)COc1cccc(N(C)C)c1)C(=O)N[C@@H](Cc1ccccc1)[C@H](O)C(=O)N1CSC(C)(C)[C@H]1C(=O)NC(C)(C)C,IIIB,-,cytopathic effect / XTT,0.024 µM
Cc1cn([C@H]2C=C[C@@H](COP(=O)(OCc3ccccc3)OCc3ccccc3)O2)c(=O)[nH]c1=O,-,-,-,4.4 µM
Cc1c(Sc2ccccc2)n(COCCO)c(=O)[nH]c1=O,LAI,-,RT activity,2 µM
Cc1ccc(S(=O)(=O)c2ccccc2[N+](=O)[O-])cc1,RF,-,cytopathic effect / XTT,6.2 µM
CCOCn1c([Se]c2cc(C)cc(C)c2)c(CC)c(=O)[nH]c1=O,RF,-,cytopathic effect / XTT,0.0089 µM
CC(C)(C)OC(=O)NCCCCCCNC(=O)/C=C/c1cn([C@H]2C=C[C@@H](CO)O2)c(=O)[nH]c1=O,LAI,-,RT activity,50 µM
CCc1cc(COCc2cccc3ccccc23)c(=O)[nH]c1C,LAI,-,RT activity,5.8 µM
CCc1nc2ccccn2c1C(=O)c1ccccc1,LAI,-,RT activity,41 µM
CCc1cc(COCc2cccc(Br)c2)c(OC)nc1C,LAI,-,RT activity,>10 µM
Cc1ccnc2c1NC(=O)c1cccnc1N2C1CC1,NL4-3 (RT A98G),RT-A98G,cytopathic effect / XTT,0.2 µM
CC(C)(C)NC(=O)[C@@H]1CN(Cc2cccnc2)CCN1C[C@@H](O)C[C@@H](Cc1ccccc1)C(=O)N[C@H]1c2ccccc2C[C@H]1O,IIIB,-,-,<0.027 µM
O=[N+]([O-])c1ccccc1S(=O)(=O)c1cc(Cl)cc2c1NCCC2,IIIB,-,XTT,0.3 µM
Cc1cccc(Cn2c(Br)nc3cc(Cl)c(Cl)cc32)c1,IIIB,-,plaque count / syncytia,3.5 µM
CCc1c([Se]c2cc(C)cc(C)c2)n(COCCO)c(=S)[nH]c1=O,RF,-,cytopathic effect / XTT,0.0099 µM
CC(C)(C)OC(=O)N[C@@H](Cc1ccccc1)[C@H](O)CNC[C@@H](O)[C@H](Cc1ccccc1)NC(=O)COc1ccccc1,RF,-,cytopathic effect / XTT,3.2 µM
Cc1cn([C@H]2C[C@H](N=[N+]=[N-])[C@@H](CO)O2)c(=O)[nH]c1=O,ED,-,cytopathic effect / XTT,0.008 µM
Cc1cn([C@H]2C[C@H](N=[N+]=[N-])[C@@H](COP(=O)(OCCSSCCO)OCCSSCCO)O2)c(=O)[nH]c1=O,LAI,-,RT activity,0.0005 µM
CC(C)c1c([Se]c2ccccc2)n(COCCO)c(=O)[nH]c1=O,RF,-,cytopathic effect / XTT,0.11 µM
Cc1cn([C@H]2C[C@H](N=[N+]=[N-])[C@@H](CO)O2)c(=O)[nH]c1=O,G-762/G-910 (AZT-RS),-,plaque count / syncytia,>10 µM
Cc1cn([C@H]2C[C@H](N=[N+]=[N-])[C@@H](COP(=O)(OCc3ccccc3)OCc3ccccc3)O2)c(=O)[nH]c1=O,-,-,-,0.01 µM
CCc1cc(COCc2ccc(Br)cc2)c(=O)[nH]c1C,LAI,-,RT activity,>10 µM
Cc1cccc([Se]c2c(C(C)C)c(=O)[nH]c(=S)n2COCc2ccccc2)c1,RF,-,cytopathic effect / XTT,0.045 µM
[N-]=[N+]=N[C@@H]1C[C@@H](n2cnc3c(N)nc(Cl)nc32)O[C@H]1CO,-,-,RT activity,>10 µM
Cc1cn([C@H]2C[C@H](N=[N+]=[N-])[C@@H](CO)O2)c(=O)[nH]c1=O,-,-,-,0.004 µM
Cc1cn([C@H]2C[C@H](N=[N+]=[N-])[C@@H](CO)O2)c(=O)[nH]c1=O,RF,-,cytopathic effect / MTT,0.0156 µM
CC(C)(C)NC(=O)[C@H]1N(C(=O)[C@@H](O)[C@H](Cc2ccccc2)NC(=O)[C@H](CC(N)=O)NC(=O)COc2cccc3cnccc23)CSC1(C)C,IIIB,-,cytopathic effect / XTT,0.225 µM
CCCCCC=C(c1cc(Cl)c(OC)c(C(=O)NC)c1)c1cc(Cl)c(OC)c(C(=O)NC)c1,RF,-,cytopathic effect / XTT,>21 µM
Cc1cn([C@H]2C[C@H](N=[N+]=[N-])[C@@H](CO)O2)c(=O)[nH]c1=O,Costatolide-resistant (RT L100I T139I),RT-L100I T139I,XTT,0.06 µM
Cc1ccnc2c1NC(=O)c1cccnc1N2C1CC1,IIIB WT,-,plaque count,0.24 µM
Nc1nc(Cl)nc2c1ncn2[C@@H]1C=C[C@H](CO)O1,-,-,RT activity,>10 µM
Cc1cccc([Se]c2c(C(C)C)c(=O)[nH]c(=O)n2COCCO)c1,RF,-,cytopathic effect / XTT,0.07 µM
CCc1nc2ncccn2c1C(=O)c1ccco1,LAI,-,RT activity,>100 µM
O=[N+]([O-])c1ccc(Cn2c(Cl)nc3cc(Cl)c(Cl)cc32)cc1,IIIB,-,plaque count / syncytia,7.8 µM
CCCCCC=C(c1cc(Br)cc(C(=O)OC)c1OC)c1cc(Br)cc(C(=O)OC)c1OC,RF,-,cytopathic effect / XTT,>44 µM
CC(C)(C)NC(=O)[C@H]1N(C(=O)[C@@H](O)[C@H](Cc2ccccc2)NC(=O)[C@H](CC(N)=O)NC(=O)COc2cccc(Nc3ccccc3)c2)CSC1(C)C,IIIB,-,cytopathic effect / XTT,0.05 µM
CCc1cc(COCc2cccc3ccccc23)c(OC)nc1C,LAI,-,RT activity,>10 µM
Cc1ccnc2c1NC(=O)c1cccnc1N2C1CC1,NL4-3(RT-4XAZT),RT-D67N K70R T215Y K219Q,XTT,0.02 µM
CC(C)[C@H](NC(=O)COc1cccc2cnccc12)C(=O)N[C@@H](Cc1ccccc1)[C@H](O)C(=O)N1CSC[C@H]1C(=O)NC(C)(C)C,IIIB,-,cytopathic effect / XTT,0.031 µM
Cc1occc1C(=S)Nc1ccc(Cl)c(/C=N/OC(C)(C)C)c1,IIIB,-,cytopathic effect / XTT,0.2 µM
CCCc1cc(=O)oc2c3c(c4c(c12)OC(C)(C)C=C4)O[C@@H](C)[C@H](C)[C@@H]3O,NL4-3,RT-V179D,XTT,0.1 µM
COc1ccc(S(=O)(=O)N(CC2CCCC2)C[C@@H](O)[C@H](Cc2ccccc2)NC(=O)O[C@H]2CCOC2)cc1,IIIB,-,-,<0.023 µM

Again, the opening 6 rows:

{"SMILES": "CC(=O)SCCOP(=O)(OCCSC(C)=O)OC[C@@H]1CC[C@H](n2cnc3c(=O)[nH]cnc32)O1", "strain": "LAI", "read by": "RT activity", "value": "1.2 µM"}
{"SMILES": "CCCCCC=C(c1cc(Cl)c(OC)c(C(=O)O)c1)c1cc(Cl)c(OC)c(C(=O)O)c1", "strain": "RF", "read by": "cytopathic effect / XTT", "value": ">84 µM"}
{"SMILES": "Cc1cn([C@H]2CC[C@@H](CO)O2)c(=O)[nH]c1=O", "strain": "LAI", "read by": "RT activity", "value": "4 µM"}
{"SMILES": "CCc1cc(COCc2ccccc2Br)c(=O)[nH]c1C", "strain": "LAI", "read by": "RT activity", "value": "2.1 µM"}
{"SMILES": "CCc1nc2sccn2c1C(=O)c1ccc(O)cc1", "strain": "LAI", "read by": "RT activity", "value": ">64 µM"}
{"SMILES": "CCOCn1c([Se]c2ccccc2)c(C(C)C)c(=O)[nH]c1=O", "strain": "RF", "read by": "cytopathic effect / XTT", "value": "0.013 µM"}

ECn is the concentration giving n% inhibition of infection, replication or growth. Blank or dashed fields: not listed here.